A mixed list of measured activities; the numbers were collected in NIAID ChemDB.

All rows: whole-cell or culture tests; species: HIV-1; method: trypan blue; endpoint: EC50

Conditions beyond the fields shown may differ between rows.

smiles,setting,cell line,strain,result
O=C(O)CSc1ccc2[nH]c3ccccc3c(=O)c2c1,,MT-4,IIIB,<100 µg/mL
Nc1ncnc2c1ncn2CCOCP(=O)(O)O,,ATH8,,2.5 µM
Nc1c(S(=O)(=O)O)cc2c3c(cc(S(=O)(=O)O)cc13)C(=O)N(NC(=O)N/N=C/c1ccc(-c3ccc(/C=N/NC(=O)NN4C(=O)c5cc(S(=O)(=O)O)cc6c(N)c(S(=O)(=O)O)cc(c56)C4=O)cc3)cc1)C2=O,,PBMC,LAV,5.6 µM
Cc1ccnc2c1NC(=O)c1cccnc1N2C1CC1,,MT-4,IIIB,0.048 µM
CC(=O)ON1COC[C@H]2O[C@@H](n3cc(C)c(=O)[nH]c3=O)C[C@@H]21,,MT-4,IIIB,15 µg/mL
CC(C)(C)NC(=O)[C@@H]1CCCN1C(=O)[C@@H](O)[C@H](Cc1ccccc1)NC(=O)[C@H](CC(N)=O)NC(=O)COc1cccc2ccccc12,,ATH8,LAI,0.9 µM
Cc1cn([C@@H]2O[C@H](CO[Si](C)(C)C(C)(C)C)[C@@]3(OS(=O)(=O)C=C3N)[C@H]2O[Si](C)(C)C(C)(C)C)c(=O)[nH]c1=O,,MT-4,IIIB,0.036 µM
Nc1c(S(=O)(=O)O)cc2c3c(cc(S(=O)(=O)O)cc13)C(=O)N(NC(=O)N/N=C\c1ccc(-c3ccc(C=O)cc3)cc1)C2=O,,PBMC,LAV,21.8 µM
CSC[C@H](NC(=O)COc1cccc2cnccc12)C(=O)N[C@@H](Cc1ccccc1)[C@H](O)C(=O)N1CSC(C)(C)[C@H]1C(=O)NC(C)(C)C,,ATH8,LAI,0.1 µM
Nc1nc2c(ncn2[C@H]2C=C[C@@H](CO)O2)c(=O)[nH]1,,MT-4,LAV,>5 µM
Cc1cn([C@H]2C=C[C@@H](CO)O2)c(=O)[nH]c1=O,5 d,MT-4,IIIB,0.65 µM
CC(C)(C)[Si](C)(C)OC[C@H]1O[C@@H](n2cnc3c(N)ncnc32)[C@H](O[Si](C)(C)C(C)(C)C)C12OS(=O)(=O)C=C2N,,MT-4,IIIB,0.27 µg/mL
Nc1nc2c(ncn2[C@H]2CC[C@@H](CO)O2)c(=O)[nH]1,,MT-4,LAV,7.6 µM
CCn1cnc2ncn([C@@H]3O[C@H](CO[Si](C)(C)C(C)(C)C)C4(OS(=O)(=O)C=C4N)[C@H]3O[Si](C)(C)C(C)(C)C)c2c1=O,,MT-4,IIIB,0.55 µg/mL
Nc1ncnc2c1ncn2[C@H]1CC[C@@H](CO)O1,,MT-4,LAV,6.4 µM
CC(C)(C)[Si](C)(C)OC[C@H]1O[C@@H](n2cnc3[nH]c(=O)[nH]c(=O)c32)[C@H](O[Si](C)(C)C(C)(C)C)C12OS(=O)(=O)C=C2N,,MT-4,IIIB,0.23 µg/mL
CO[C@H]1O[C@@H](n2ccc(=O)[nH]c2=O)C[C@@H]1N=[N+]=[N-],,MT-4,LAV,0.36 µM
Nc1nc(=O)n([C@@H]2C[Se][C@H](CO)O2)cc1F,,PBMC,LAV,0.07 µM
CCC(C)C(NC(=O)[C@@H]1CCCN1C(=O)[C@@H](O)[C@H](Cc1ccccc1)NC(=O)[C@H](CC(N)=O)NC(=O)OCc1ccccc1)C(=O)NCC1CCCCC1,,ATH8,LAI,17 µM
Nc1ncnc2c1ncn2[C@H]1C=C[C@@H](CO)O1,,MT-4,LAV,>125 µM
Cn1cnc2c(ncn2[C@@H]2O[C@H](CO[Si](C)(C)C(C)(C)C)C3(OS(=O)(=O)C=C3N)[C@H]2O[Si](C)(C)C(C)(C)C)c1=O,,MT-4,IIIB,0.18 µg/mL

A second listing of 2 rows from above:

smiles	setting	cell line	strain	result
CC(C)(C)NC(=O)[C@@H]1CCCN1C(=O)[C@@H](O)[C@H](Cc1ccccc1)NC(=O)[C@H](CC(N)=O)NC(=O)COc1cccc2ccccc12		ATH8	LAI	0.9 µM
CCn1cnc2ncn([C@@H]3O[C@H](CO[Si](C)(C)C(C)(C)C)C4(OS(=O)(=O)C=C4N)[C@H]3O[Si](C)(C)C(C)(C)C)c2c1=O		MT-4	IIIB	0.55 µg/mL

An empty or dashed field is not shown. ECn is the concentration giving n% inhibition of infection, replication or growth.